Measured values from several laboratories, pooled; numbers as filed in NIAID ChemDB.

Common to all: tests on isolated targets

Fold resistance: result on the changed form divided by that on wild type. An empty or dashed field is not shown. Lines come from different laboratories, so protocols vary. Inhibition is in % at the dose shown (toxicity tests: loss of growth or viability). ICn is the concentration giving n% inhibition.

compound,strain,changes,target,tested at,agent,measure,method,result
Cc1ccc(C(=O)Nc2ccc3c(c2)c(C(C(=O)O)C(=O)O)cn3S(=O)(=O)c2ccc(C)cc2)cc1,-,G140S,Integrase,-,HIV-1,IC50,strand transfer / fluorescence,>25 µM
O=C(Nc1nnc(NCc2ccncc2)s1)c1cc2ccccc2s1,-,-,Polymerase,-,Human cytomegalovirus,IC50,-,>25 µM
COc1cccc(S(=O)(=O)NN2C(=O)/C(=C\c3ccc(Cl)c(Cl)c3)SC2=S)c1,-,-,NS5B polymerase,-,Hepatitis C virus,IC50,-,≤30 µM
Cc1ccc(S(=O)(=O)n2cc(/C(O)=C/C(=O)C(=O)O)c3cc(F)ccc32)cc1,-,G140S,Integrase,-,HIV-1,fold resistance,strand transfer / fluorescence,5
COCON1C(=O)[C@H]([C@H](O)c2ccc(OC)cc2)N(Cc2ccc(OC)cc2)[C@@H](Cc2ccccc2)C1=O,-,-,Transcriptase,-,Influenza A virus,IC50,-,>200 µM
Cc1ccc(/C=C2/SC(=S)N(NS(=O)(=O)c3ccccc3)C2=O)cc1C,-,-,NS5B polymerase,-,Hepatitis C virus,IC50,-,≤30 µM
CC(N)CB(O)O,-,-,Aminopeptidase,-,Cryptosporidium parvum,IC50,-,<0.001 µM
O=C(O)c1cc(C2CC2)c2nc(N3CCOCC3)c(F)cn2c1=O,NCTC10649,-,Gyrase,-,Staphylococcus aureus,IC50,-,1.5 µg/mL
CC(=O)N[C@@H](CC(C)C)C(=O)N[C@@H](CC(C)C)C(=O)N[C@H](C=O)CCCN=C(N)N,-,-,Aminopeptidase,-,Cryptosporidium parvum,IC50,-,>1000 µM
O=C(Nc1nnc(NCCc2ccccc2)s1)c1c(Cl)cccc1Cl,-,-,Polymerase,-,Human cytomegalovirus,IC50,-,>25 µM
O=C1/C(=C\c2ccc(Cl)c(Cl)c2)SC(=S)N1NS(=O)(=O)c1cc(Cl)cc(Cl)c1,-,-,NS5B polymerase,-,Hepatitis C virus,IC50,-,≤30 µM
CN[C@H]1[C@@H](O[C@@H]2O[C@H](CO)[C@@H](O)[C@H](O)[C@H]2O)[C@H](O)[C@@H](O[C@H]2c3cc(C)c(C(=O)N[C@H](C)C(=O)OC)c(O)c3-c3c(cc4c(c3O)C(=O)c3cc(OC)cc(O)c3C4=O)[C@@H]2O)O[C@H]1C,-,-,Glucosidase,-,Actinomadura verrucosospora,IC50,-,>100 µg/mL
CC(C)C(=O)Nc1ccc(S(=O)(=O)Nc2ccc(N)cc2O)cc1,-,-,DHPS,-,Pneumocystis carinii,IC50,-,>10 µM
Cc1ccc(S(=O)(=O)n2cc(C(C(=O)O)C(=O)O)c3cc(NC(=O)c4ccc(F)cc4)ccc32)cc1,-,G140S,Integrase,-,HIV-1,IC50,strand transfer / fluorescence,>25 µM
CCOc1ccc2ccccc2c1C(=O)Nc1nnc(NCCNc2ccccc2)s1,-,-,Polymerase,-,Human cytomegalovirus,IC50,-,<25 µM
CC1(C)OC(=O)/C(=C/C(=O)c2cn(Cc3cc(F)ccc3F)c3ccc(Br)cc23)O1,-,G140S,Integrase,-,HIV-1,IC50,strand transfer / fluorescence,9.4 µM
COCON1C(=O)/C(=C/c2ccccc2)N(Cc2ccc(OC)cc2)[C@@H](CC(C)C)C1=O,-,-,Transcriptase,-,Influenza A virus,IC50,-,>200 µM
CC(=O)NS(=O)(=O)c1ccc(N=NC2C(=O)N(C(=O)c3ccncc3)N=C2C)cc1,-,-,DHPS,-,Pneumocystis carinii,IC50,-,>10 µM
COc1cccc2c1C(=O)c1c(O)c3c(c(O)c1C2=O)C[C@@](O)(C(C)=O)C[C@@H]3O[C@H]1C[C@H](N)[C@H](O)[C@H](C)O1,-,-,NTPase/helicase,-,West Nile virus,IC50,-,120 µM
COc1c(N2CCC(N)C2)c(F)cn2c(=O)c(C(=O)O)cc(C3CC3)c12,NCTC10649,-,Gyrase,-,Staphylococcus aureus,IC50,-,0.3 µg/mL
CC(C)(C)OC(=O)CCNc1nnc(NC(=O)c2ccc(Cl)c(Cl)c2)s1,-,-,Polymerase,-,Human cytomegalovirus,IC50,-,>25 µM
NC(=O)c1ncn([C@@H]2O[C@H](COP(=O)(O)O)[C@@H](O)[C@H]2O)n1,-,-,RNA polymerase,500 µM,Simian rotavirus,inhibition,-,0%
O=C(O)c1cc(C2CC2)c2cc(N3CCNCC3)c(F)cn2c1=O,NCTC10649,-,Gyrase,-,Staphylococcus aureus,IC50,-,0.15 µg/mL
O=C1/C(=C\c2ccc(F)cc2F)SC(=S)N1NS(=O)(=O)c1ccccc1,-,-,NS5B polymerase,-,Hepatitis C virus,IC50,-,≤30 µM
Cc1cc2c(c(O)c1C(=O)O)-c1c(cc3c(c1O)C(=O)c1cc(O)cc(O)c1C3=O)[C@H](O)[C@H]2O,-,-,Glucosidase,-,Actinomadura verrucosospora,IC50,-,69 µg/mL
CCOC(=O)C(C(=O)OCC)c1cn(S(=O)(=O)c2ccc(C)cc2)c2ccc(NC(=O)c3cc(F)c(F)c(F)c3)cc12,-,-,Integrase,-,HIV-1,IC50,strand transfer / fluorescence,20.1 µM
COc1ncnc(NS(=O)(=O)c2ccc(N)cc2)c1OC,-,-,DHPS,-,Pneumocystis carinii,IC50,-,0.74 µM
O=C(O)c1cc(C2CC2)c2nc(N3CCNCC3)c(F)cn2c1=O,NCTC10649,-,Gyrase,-,Staphylococcus aureus,IC50,-,2 µg/mL
Cc1cn([C@@H]2O[C@H](CO[Si](C)(C)C(C)(C)C)[C@@]3(OS(=O)(=O)C=C3N)[C@H]2O[Si](C)(C)C(C)(C)C)c(=O)[nH]c1=O,-,RT-N137Y,Reverse transcriptase,-,HIV,IC50,nucleotide incorporation / radiometric,0.41 µM
Cc1cc(SC2=C(O)C[C@@](CCc3ccc(O)cc3)(C(C)C)OC2=O)c(C(C)(C)C)cc1CO,-,-,Cytochrome P450 2C9,10 µM,-,inhibition,-,14%
O=C(Nc1nnc(NCCCNC2CCCCC2)s1)c1ccc(I)cc1,-,-,Polymerase,-,Human cytomegalovirus,IC50,-,>25 µM
Cc1cc2c(c(O)c1C(=O)NC(C)C(=O)O)-c1c(O)c3c(c(O)c1C(O)C2O)C(=O)c1c(O)cc(O)cc1C3=O,-,-,Glucosidase,-,Actinomadura verrucosospora,IC50,-,>100 µg/mL
Cn1c2ccccc2c2c3c(c4c5ccccc5n(CCC#N)c4c21)CNC3=O,-,-,Myosin light-chain kinase,-,-,IC50,-,5.8 µM
Nc1ncnc2c1ncn2C[C@H](O)CO,-,-,RNA polymerase,500 µM,Simian rotavirus,inhibition,-,0%
CCOC(=O)C(C(=O)OCC)c1cn(S(=O)(=O)c2ccc(C)cc2)c2ccc(NC(=O)c3ccc(F)cc3Cl)cc12,-,G140S,Integrase,-,HIV-1,IC50,strand transfer / fluorescence,>25 µM
COCON1C(=O)[C@H]([C@H](OS(C)(=O)=O)C(C)C)N(Cc2ccc(OC)cc2)[C@@H](CC(C)C)C1=O,-,-,Transcriptase,-,Influenza A virus,IC50,-,>200 µM
NC(Cc1ccccc1)B(O)O,-,-,Aminopeptidase,0.001 µM,Cryptosporidium parvum,inhibition,-,79%
COCON1C(=O)[C@H]([C@H](OS(C)(=O)=O)c2ccc(F)cc2)N(Cc2ccc(OC)cc2)[C@@H](Cc2ccccc2)C1=O,-,-,Transcriptase,-,Influenza A virus,IC50,-,>200 µM
Nc1ccc(S(=O)(=O)Nc2nccs2)cc1,-,-,DHPS,0.05 µM,Pneumocystis carinii,inhibition,-,60.9%
COC(=O)C1c2cc3c(c(O)c2C(O)CC1(C)O)C(=O)c1c(O)cc2c(c1C3=O)OC1OC2(C)C(O)C(N(C)C)C1O,-,-,NTPase/helicase,-,Dengue virus,IC50,-,>650 µM
O=S(=O)(F)Cc1ccccc1,-,-,Aminopeptidase,-,Cryptosporidium parvum,IC50,-,>1000 µM
O=[N+]([O-])c1cc(S(=O)(=O)c2ccc(F)c([N+](=O)[O-])c2)ccc1F,-,-,DHPS,-,Pneumocystis carinii,IC50,-,>10 µM
NN1C(=O)/C(=C\c2ccc(-c3cc(C(F)(F)F)ccc3Cl)o2)SC1=S,-,-,NS5B polymerase,-,Hepatitis C virus,IC50,-,≤30 µM
CCC(CC)Nc1cc(C(=O)O)ccc1N1C(=O)CCC1(CO)CN=[N+]=[N-],Subtype N1,-,Neuraminidase,-,Influenza A virus,IC50,-,268 µM
N#CCCn1c2ccc(O)cc2c2c3c(c4c5cc(O)ccc5[nH]c4c21)C(=O)NC3,-,-,Tyrosine kinase,-,-,IC50,-,>10 µM
O=C(O)C(=O)/C=C(\O)c1cn(Cc2cc(F)ccc2F)c2ccc(F)cc12,-,G140S,Integrase,-,HIV-1,fold resistance,strand transfer / fluorescence,6
CN1Cc2c(c3c4ccccc4n(C)c3c3c2c2ccccc2n3CCC#N)C1=O,-,-,Protein kinase C,-,-,IC50,-,>30 µM
COCON1C(=O)[C@H]([C@H](OS(C)(=O)=O)c2cccc(F)c2)N(Cc2ccc(OC)cc2)[C@@H](CC(C)C)C1=O,-,-,Transcriptase,-,Influenza A virus,IC50,-,>200 µM

A second listing of 6 rows from above:

| compound | strain | changes | target | tested at | agent | measure | method | result |
|---|---|---|---|---|---|---|---|---|
| COc1c(N2CCC(N)C2)c(F)cn2c(=O)c(C(=O)O)cc(C3CC3)c12 | NCTC10649 | - | Gyrase | - | Staphylococcus aureus | IC50 | - | 0.3 µg/mL |
| Cc1cn([C@@H]2O[C@H](CO[Si](C)(C)C(C)(C)C)[C@@]3(OS(=O)(=O)C=C3N)[C@H]2O[Si](C)(C)C(C)(C)C)c(=O)[nH]c1=O | - | RT-N137Y | Reverse transcriptase | - | HIV | IC50 | nucleotide incorporation / radiometric | 0.41 µM |
| Cc1cc2c(c(O)c1C(=O)O)-c1c(cc3c(c1O)C(=O)c1cc(O)cc(O)c1C3=O)[C@H](O)[C@H]2O | - | - | Glucosidase | - | Actinomadura verrucosospora | IC50 | - | 69 µg/mL |
| COc1cccc2c1C(=O)c1c(O)c3c(c(O)c1C2=O)C[C@@](O)(C(C)=O)C[C@@H]3O[C@H]1C[C@H](N)[C@H](O)[C@H](C)O1 | - | - | NTPase/helicase | - | West Nile virus | IC50 | - | 120 µM |
| O=C(O)C(=O)/C=C(\O)c1cn(Cc2cc(F)ccc2F)c2ccc(F)cc12 | - | G140S | Integrase | - | HIV-1 | fold resistance | strand transfer / fluorescence | 6 |
| CCOC(=O)C(C(=O)OCC)c1cn(S(=O)(=O)c2ccc(C)cc2)c2ccc(NC(=O)c3ccc(F)cc3Cl)cc12 | - | G140S | Integrase | - | HIV-1 | IC50 | strand transfer / fluorescence | >25 µM |